Measured values reported in the supplement of paper PMC9931576.
Human monoclonal antibodies against the spike receptor-binding domain (heavy:light variable regions). IC50 against pseudoviruses bearing the spike of naturally observed variants; lower = stronger; >10 µg/ml means not reached at the top dose. No active / inactive call. The stated detection limit is 0.0005 µg/ml; values near or below 0.001 µg/ml lie at the floor of the assay.

B1: BD55-5840 (protein)
chain 1: QVQLAQSGSELRKPGASVKVSCDTSGHSFTSNAIHWVRQAPGQGLEWMGWINTDTGTPTYAQGFTGRFVFSLDTSARTAYLQISSLKADDTAVFYCARERDYSDYFFDYWGQGTLVTVSS
chain 2: EVVMTQSPASLSVSPGERATLSCRARASLGISTDLAWYQQRPGQAPRLLIYGASTRATGIPARFSGSGSGTEFTLTISSLQSEDSAVYYCQQYSNWPLTFGGGTKVEIK
B2: BD55-1104 (protein)
chain 1: EVQLVQSGAEVKKPGESLKISCKGSGYSFTTYWTGWVRQVPGKGLEWMGLIYPRDSDARYTPSFEGHVTISADNSINTAYLHWSSLKASDTAIYYCVSAGDTGWRGHADYWGQGTLVTVSS
chain 2: DIQMTQSPSSLSASVGDRVTITCRASLDIRNYLVWFQQKPGTAPKSLIYEASTLQSGVPSRFSGSGSGTDFTLTISSLRPEDFATYYCQQYNTWPFTFGGGTKVEIK
B3: BD55-5847 (protein)
chain 1: QVQLVQSGAEVKKPGASVKVSCKASGYTFTSFYIHWLRQAPGQGPEWMGMINPSGAITEYSQRFQGRVTLTRDTSTSTVYMELSSLRSEDTAVYYCARDLDAISTGFFDYWGQGTLVTVSS
chain 2: EVVMTQSPATLSVSPGERATLSCRASQSVSSNLAWYQQKPGQAPRLLIYGASTRATGIPARFSGSGSGTEFTLTVSSLQSEDFAVYYCQQYYIWPPLDTFGQGTRLEIK
B4: BD55-5866 (protein)
chain 1: EVQLVESGGGLVKPGGSMRLSCAASGFSFGIYSMNWVRQAPGKGLEWVSFITSSSSYIYYADSVKGRFTISRDNAKNSLYLQMNSLRAEDAAVYYCVRDGRDLLRSFPRRDFDFWGQGTLVTVSS
chain 2: DIQMTQSPSSVSASVGDRVTITCRASQGISSWLAWYQQKPGKAPKLLIYAASSLQSGVPSRFGGSGSGTDFTLTISSLQPEDFATYYCQQANSFPRTFGQGTRLEIK
B5: BD55-5874 (protein)
chain 1: EVQLVESGGGLVQPGESLRLSCAASGFPVNRYYISWVRQAPGKTLEWVSVIYRDDSTFSADSVKGRFTISRHSSKNTVYLHMSSLRAEDTAVYYCAGGRHTQVEYDFLTGYGLGAFDIWGQGTMVTVS
chain 2: DIQMTQSPSTLSASVGDRVTITCRASQSISNWLAWYQQKPGKAPNLLIYKASSLESGVPSRFSGSGSGTEFTLTISSLQPDDFATYYCQQYNSYQWTFGQGTKVEIK
B6: BD55-5877 (protein)
chain 1: QVQLVQSGSELKKPGASVKVSCKASGYTFTSFAMNWVRQAPGQEFEWMGWINTNTGNPTYAQGFTGRFVFSLDTSVSTAYLQITSLKTEDTAVYYCARAYMVGGLIKFWFDPWGQGTLVTVSS
chain 2: AIRMTQSPSSLSASTGDRVTITCRASQDINRYLAWYQQQPGKAPKLLIYTASTLQSGVPARFSGSGSGTDFTLTISSLQSEDFATYFCQQYFTYPLLTFGPGTKVDIK

Molecular target: SARS-CoV-2 Omicron BA.1 spike pseudovirus
Assay: pseudovirus neutralization IC50; higher = weaker neutralization
Description: (§1)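 Single-round VSV luciferase pseudovirus mixed with antibody dilutions for 1 h and put on Huh-7 cells for about a day; IC50 from the dose curve.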

Going from B1 to B2, the “pseudovirus neutralization IC50” value rises from 0.0044 µg/mL to 1.7 µg/mL (390-fold).

B3 and B4 cannot be ordered by “pseudovirus neutralization IC50” value: > 10 µg/mL for the first, > 10 µg/mL for the second.

B5 and B6 cannot be ordered by “pseudovirus neutralization IC50” value: > 10 µg/mL for the first, > 10 µg/mL for the second.

Molecular target: SARS-CoV-2 Omicron BA.2 spike pseudovirus
Assay: as above
Description: as §1

B1 and B2 are within 1.5-fold of each other in “pseudovirus neutralization IC50” value: 0.00512 µg/mL for the first, 0.00492 µg/mL for the second.

B3 and B4 cannot be ordered by “pseudovirus neutralization IC50” value: > 10 µg/mL for the first, > 10 µg/mL for the second.

B5 and B6 cannot be ordered by “pseudovirus neutralization IC50” value: > 10 µg/mL for the first, > 10 µg/mL for the second.

Molecular target: SARS-CoV-2 Omicron BA.2.75 spike pseudovirus
Assay: as above
Description: as §1

B1 and B2 are within 1.5-fold of each other in “pseudovirus neutralization IC50” value: 0.246 µg/mL for the first, 0.242 µg/mL for the second.

B3 and B4 cannot be ordered by “pseudovirus neutralization IC50” value: > 10 µg/mL for the first, > 10 µg/mL for the second.

B5 and B6 cannot be ordered by “pseudovirus neutralization IC50” value: > 10 µg/mL for the first, > 10 µg/mL for the second.

Molecular target: SARS-CoV-2 Omicron BA.5 spike pseudovirus
Assay: as above
Description: as §1

B1 and B2 are within 1.5-fold of each other in “pseudovirus neutralization IC50” value: 0.00393 µg/mL for the first, 0.00378 µg/mL for the second.

B3 and B4 cannot be ordered by “pseudovirus neutralization IC50” value: > 10 µg/mL for the first, > 10 µg/mL for the second.

B5 and B6 cannot be ordered by “pseudovirus neutralization IC50” value: > 10 µg/mL for the first, > 10 µg/mL for the second.

Molecular target: SARS-CoV-2 Omicron BQ.1.1 spike pseudovirus
Assay: as above
Description: as §1

Going from B1 to B2, the “pseudovirus neutralization IC50” value rises from 0.651 µg/mL to 3.03 µg/mL (4.7-fold).

B3 and B4 cannot be ordered by “pseudovirus neutralization IC50” value: > 10 µg/mL for the first, > 10 µg/mL for the second.

B5 and B6 cannot be ordered by “pseudovirus neutralization IC50” value: > 10 µg/mL for the first, > 10 µg/mL for the second.

Molecular target: SARS-CoV-2 Omicron XBB spike pseudovirus
Assay: as above
Description: as §1

B1 and B2 cannot be ordered by “pseudovirus neutralization IC50” value: > 10 µg/mL for the first, > 10 µg/mL for the second.

B3 and B4 cannot be ordered by “pseudovirus neutralization IC50” value: > 10 µg/mL for the first, > 10 µg/mL for the second.

B5 and B6 cannot be ordered by “pseudovirus neutralization IC50” value: > 10 µg/mL for the first, > 10 µg/mL for the second.

Molecular target: SARS-CoV-2 early D614G spike pseudovirus
Assay: as above
Description: as §1

B1 and B2 are within 1.5-fold of each other in “pseudovirus neutralization IC50” value: 0.001 µg/mL for the first, 0.0013 µg/mL for the second.

Compared with B3, B4 is lower in “pseudovirus neutralization IC50” value: > 10 µg/mL for the first, 0.001 µg/mL for the second.

Compared with B5, B6 is higher in “pseudovirus neutralization IC50” value: 0.0641 µg/mL for the first, > 10 µg/mL for the second.
